PubChem BioAssay AID1259414 | Drosophila RNAi Screening Center | 2018

Assay: 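Fly genes that alter Wolbachia amount inside host cells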 (primary screen)
Cells: Drosophila JW18 cells infected with Wolbachia
Reagents: long dsRNA against Drosophila genes, 0.25 µg dsRNA per well of a 384-well plate
Duration: 5 days
Challenge: cells persistently infected with Wolbachia before knock-down; no added drug
Measured: 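Automated imaging of bacterial rRNA staining divided by host cell count, reported as plate-normalised robust z-score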
Reading the numbers: Wolbachia per cell robust z: higher = more Wolbachia per host cell than the plate typical
Active means: 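Hit when robust z is 1.5 or more, or -1.5 or less, in at least two of three replicates; excludes dsRNAs with several or no targets, genes not expressed in JW18 and well A1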
In all, the deposit lists about 24,000 reagents; this is an unselected part of those that have a named target and a result. In the full data, about 1,210 (5%) are marked active. 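Inactive calls also include excluded dsRNAs with several or no targets, genes unexpressed in JW18, and well A1, regardless of score.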 Unmarked entries are inactive.

Which result is listed for CG15236 [SID104202382]?
Wolbachia per cell robust z, rep 1: -0.167; Wolbachia per cell robust z, rep 2: 0.0438; Wolbachia per cell robust z, rep 3: -2.81

With CG15236 [SID104204427], how do the results read?
Wolbachia per cell robust z, rep 1: -0.208; Wolbachia per cell robust z, rep 2: -0.635; Wolbachia per cell robust z, rep 3: 0.681

Which result is listed for CG15236 [SID104216597]?
Wolbachia per cell robust z, rep 1: 0.829; Wolbachia per cell robust z, rep 2: 0.22; Wolbachia per cell robust z, rep 3: 0.0566

How did the screen score APC7 [SID104197729]?
Wolbachia per cell robust z, rep 1: -0.188; Wolbachia per cell robust z, rep 2: -0.825; Wolbachia per cell robust z, rep 3: 0.753

What is on record for APC7 [SID104205641]?
Wolbachia per cell robust z, rep 1: -0.0771; Wolbachia per cell robust z, rep 2: -0.935; Wolbachia per cell robust z, rep 3: -0.0153

Which result is listed for CG8858 [SID104187082]?
Wolbachia per cell robust z, rep 1: 0.595; Wolbachia per cell robust z, rep 2: -1.42; Wolbachia per cell robust z, rep 3: 0.683

What is on record for prt [SID104196686]?
Wolbachia per cell robust z, rep 1: -3.96; Wolbachia per cell robust z, rep 2: -0.381; Wolbachia per cell robust z, rep 3: -1.2

For Aprt [SID104187931], what was measured?
Wolbachia per cell robust z, rep 1: 0.272; Wolbachia per cell robust z, rep 2: -0.0144; Wolbachia per cell robust z, rep 3: 0.197

With gry [SID104187820], what was measured?
Wolbachia per cell robust z, rep 1: -1.36; Wolbachia per cell robust z, rep 2: -0.292; Wolbachia per cell robust z, rep 3: -0.00989

What did the screen give for gry [SID104188310]?
Wolbachia per cell robust z, rep 1: 1.39; Wolbachia per cell robust z, rep 2: 0.444; Wolbachia per cell robust z, rep 3: -0.484

As entered above:
Value for gry [SID104187820] in “Wolbachia per cell robust z, rep 2”: -0.292
Entry of APC7 [SID104205641] under “Wolbachia per cell robust z, rep 1”: -0.0771
Value for prt [SID104196686] under “Wolbachia per cell robust z, rep 2”: -0.381

The list goes on.
Which result is listed for pont [SID104196821]?
Wolbachia per cell robust z, rep 1: -2.07 (active); Wolbachia per cell robust z, rep 2: -2.45; Wolbachia per cell robust z, rep 3: -0.437

For CG15710 [SID104186373], what was measured?
Wolbachia per cell robust z, rep 1: -3.88; Wolbachia per cell robust z, rep 2: 0.496; Wolbachia per cell robust z, rep 3: 0.0606

Which result is listed for CG30325 [SID104185477]?
Wolbachia per cell robust z, rep 1: -0.555; Wolbachia per cell robust z, rep 2: -0.0574; Wolbachia per cell robust z, rep 3: 1.06

What did the screen give for IPIP [SID104181956]?
Wolbachia per cell robust z, rep 1: 0.472; Wolbachia per cell robust z, rep 2: 0.463; Wolbachia per cell robust z, rep 3: -0.516

With IPIP [SID104206024], what does the deposit list?
Wolbachia per cell robust z, rep 1: 0.65; Wolbachia per cell robust z, rep 2: -0.273; Wolbachia per cell robust z, rep 3: 1.44

How did the screen score lncRNA:CR32385 [SID104202323]?
Wolbachia per cell robust z, rep 1: 0.132; Wolbachia per cell robust z, rep 2: -1.31; Wolbachia per cell robust z, rep 3: -0.0465

With CG18558 [SID104201300], what was measured?
Wolbachia per cell robust z, rep 1: 0.116; Wolbachia per cell robust z, rep 2: -1.49; Wolbachia per cell robust z, rep 3: -0.751

For CG13223 [SID104186136], what was measured?
Wolbachia per cell robust z, rep 1: 0.19; Wolbachia per cell robust z, rep 2: 0.361; Wolbachia per cell robust z, rep 3: -1.44

What did the screen give for CG7406 [SID104199834]?
Wolbachia per cell robust z, rep 1: 0.178; Wolbachia per cell robust z, rep 2: -0.107; Wolbachia per cell robust z, rep 3: 0.368

With CG7406 [SID104207253], what was measured?
Wolbachia per cell robust z, rep 1: 0.645; Wolbachia per cell robust z, rep 2: -1.08; Wolbachia per cell robust z, rep 3: -1.8

For CG12012 [SID104188012], what does the deposit list?
Wolbachia per cell robust z, rep 1: -0.173; Wolbachia per cell robust z, rep 2: -2.69; Wolbachia per cell robust z, rep 3: 0.614

What did the screen give for Hml [SID104190975]?
Wolbachia per cell robust z, rep 1: -0.692; Wolbachia per cell robust z, rep 2: -0.651; Wolbachia per cell robust z, rep 3: 0.417

With GstO1 [SID104190480], what does the deposit list?
Wolbachia per cell robust z, rep 1: 0.676; Wolbachia per cell robust z, rep 2: 1.18; Wolbachia per cell robust z, rep 3: -0.0949

What did the screen give for GstO1 [SID104204608]?
Wolbachia per cell robust z, rep 1: 0.542; Wolbachia per cell robust z, rep 2: 0.953; Wolbachia per cell robust z, rep 3: -0.44

Which result is listed for GstO1 [SID104218789]?
Wolbachia per cell robust z, rep 1: 1.24; Wolbachia per cell robust z, rep 2: 0.615; Wolbachia per cell robust z, rep 3: -2.45
